Values from PubChem BioAssay AID624099 (ICCB-Longwood, 2012).
Test: 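Host factors E2 relies on to silence an HPV18 LCR reporter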 (primary screen). Cells: human C33A cervical carcinoma cells (HPV-negative) stably expressing BPV1 E2 and an HPV18 LCR luciferase reporter. Reagents: siRNA pool against human genes, 40 nM. Duration: 72 h. Read-out: 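HPV18 LCR reporter light per well, converted to plate-wise z-scores that exclude control wells, and averaged over triplicate plates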. Scale: mean z-score and z-score: higher = stronger reporter signal, weaker E2 silencing. Active means: 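Hit if mean z-score reaches 2 and two or more of three replicate z-scores also reach 2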.
In all, the deposit lists about 21,000 reagents; below is a random part of them. 497 of all reagents (2.4%) count as active. 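Higher z means weaker E2 silencing; only reporter increases were scored, and knock-downs that hurt cell survival may mask genuine repressor factors.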 A number with no mark means an inactive call.

| target gene | mean z-score | z-score, replicate A | z-score, replicate B | z-score, replicate C |
| --- | --- | --- | --- | --- |
| NDUFA9 (NADH:ubiquinone oxidoreductase subunit A9) | -1.15 | -1.16 | -0.94 | -1.37 |
| TMEM132C (transmembrane protein 132C) | -1.21 | -1.01 | -1.72 | -0.91 |
| CLYBL (citramalyl-CoA lyase) | 0.64 | 0.79 | 0.55 | 0.6 |
| HNMT (histamine N-methyltransferase) | 1.56 | 1.09 | 1.83 | 1.75 |
| PCDHGC4 (protocadherin gamma subfamily C, 4) | -0.73 | -1.1 | -0.7 | -0.38 |
| USP51 (ubiquitin specific peptidase 51) | -2.67 | -2.81 | -2.52 | -2.69 |
| POP4 (POP4 ribonuclease P/MRP subunit) | 0.52 | 0.37 | 0.39 | 0.8 |
| BEAN1 (brain expressed associated with NEDD4 1) | -0.56 | -0.46 | -0.55 | -0.68 |
| NECAB3 (N-terminal EF-hand calcium binding protein 3) | -0.67 | -1.02 | -0.68 | -0.3 |
| SCG3 (secretogranin III) | 1.02 | 1.18 | 1.39 | 0.5 |
| PON3 (paraoxonase 3) | 1.31 | 1.56 | 1.56 | 0.81 |
| DAPK2 (death associated protein kinase 2) | -0.48 | -0.19 | -0.9 | -0.34 |
| BLTP2 (bridge-like lipid transfer protein family member 2) | 0.38 | 0.37 | 0.28 | 0.48 |
| LOC401026 (retired record) | 0.48 | 0.56 | 0.58 | 0.31 |
| LOC402527 (retired record) | 0.24 | 0.41 | 0.31 | 0.01 |
| SBF2 (SET binding factor 2) | -0.73 | -0.7 | -0.79 | -0.7 |
| PKNOX2 (PBX/knotted 1 homeobox 2) | 1.24 | 1.16 | 1.31 | 1.26 |
| VPS33B (VPS33B late endosome and lysosome associated) | 0.46 | 0.69 | 0.26 | 0.44 |
| LOC388461 (retired record) | -0.65 | -0.77 | -0.74 | -0.45 |
| UROD (uroporphyrinogen decarboxylase) | 0.4 | 0.61 | 0.18 | 0.4 |
| TCAF2 (TRPM8 channel associated factor 2) | 2.36 (active) | 1.84 | 2.62 | 2.62 |
| LIFR (LIF receptor subunit alpha) | -0.09 | -0.22 | 0.13 | -0.18 |
| SH3TC2 (SH3 domain and tetratricopeptide repeats 2) | 0.35 | 0.34 | 0.16 | 0.57 |

In a second layout: results already given.
USP51 (ubiquitin specific peptidase 51): mean z-score = -2.67; z-score, replicate A = -2.81; z-score, replicate B = -2.52; z-score, replicate C = -2.69
POP4 (POP4 ribonuclease P/MRP subunit): mean z-score = 0.52; z-score, replicate A = 0.37; z-score, replicate B = 0.39; z-score, replicate C = 0.8
BEAN1 (brain expressed associated with NEDD4 1): mean z-score = -0.56; z-score, replicate A = -0.46; z-score, replicate B = -0.55; z-score, replicate C = -0.68
